Experimental data: article PMC3086806, “Mining a Cathepsin Inhibitor Library for New Antiparasitic Drug Leads” (PLoS Neglected Tropical Diseases, 2011)

The chains behind the UniProt entries cited, without tags or fusion partners. Residues count along the entry.
UniProt Q8IIL0, 243-492 limits assumed: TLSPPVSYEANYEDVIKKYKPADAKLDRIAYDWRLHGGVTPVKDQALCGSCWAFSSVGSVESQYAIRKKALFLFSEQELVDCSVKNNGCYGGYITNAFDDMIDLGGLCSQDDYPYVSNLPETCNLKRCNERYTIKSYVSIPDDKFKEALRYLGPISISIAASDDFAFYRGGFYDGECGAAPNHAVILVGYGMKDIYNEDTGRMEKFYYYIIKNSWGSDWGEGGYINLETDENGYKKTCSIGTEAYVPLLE
UniProt Q8I6U4, 244-484 limits assumed: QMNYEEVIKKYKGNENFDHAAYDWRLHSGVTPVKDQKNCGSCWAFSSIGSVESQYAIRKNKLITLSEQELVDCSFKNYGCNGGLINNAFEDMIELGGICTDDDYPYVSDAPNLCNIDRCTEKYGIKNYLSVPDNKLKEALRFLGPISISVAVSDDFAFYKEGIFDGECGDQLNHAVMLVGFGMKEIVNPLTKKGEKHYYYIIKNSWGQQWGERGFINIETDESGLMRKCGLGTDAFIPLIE

What was measured:
falcipain-3 = falcipain-3 (Plasmodium falciparum, UniProt Q8IIL0); test: Falcipain-3 protease inhibition assay (Z-Leu-Arg-AMC); format: biochemical; conditions: read-out: IC50 falcipain-3
Experimental: (§1) Recombinant cruzain, rhodesain, TbCatB, falcipain-2 and falcipain-3 were expressed as described previously, [39], [40], [41], [42]. Inhibitor stock solutions were prepared in DMSO and screened at 0.1 µM for cruzain and rhodesain, 1 µM for TbCatB and 50 nM for falcipain-3 (0.5% DMSO in assay). […] Protease inhibition assays for cruzain and rhodesain were carried out in 96 well plate format as described previously. Cruzain (4 nM), rhodesain (4 nM) or TbCatB (258 nM) was incubated with test compound in 100 mM sodium acetate, pH 5.5, containing 5 mM DTT and 0.01% Triton X-100 (buffer A), for 5 min at room temperature (the higher concentration of TbCatB was required due to its lower intrinsic activity against the fluorogenic substrate). Then buffer A containing Z-Phe-Arg-AMC (Bachem) was added to enzyme-compound mixture to give 10 µM substrate in a final assay volume of 200 µL. The rate of free AMC release was measured at excitation and emission wavelengths of 355 and 460 nm, respectively, with a microtiter plate spectrofluorimeter (SpectraMax M5, Molecular Devices) for 3 min. Percentage inhibition of test compound was calculated relative to the DMSO control (0% inhibition control). IC50 values were determined with Prism 4 software (GraphPad, San Diego, CA) using sigmoidal dose-response variable slope model.
(§2) Protease inhibition assays for falcipain-2 and falcipain-3 were carried out in 96 well plate format as described previously, [43] with modification for end-point readout. Falcipain-2 (21 nM) or falcipain-3 (78 nM) was incubated with test compound for 10 min at room temperature in 200 mM sodium acetate, pH 6, 10 mM DTT and 3.6% glycerol and 0.01% Triton X-100 (buffer B). Then buffer B containing Z-Leu-Arg-AMC (Bachem) was added to the enzyme-compound mixture to give 25 µM substrate in a final assay volume of 200 µL. After 15 min, 50 µL of 5 M acetic acid was added to each well to stop the reaction. End-point fluorescence was read in a spectrofluorimeter as above. The 0% inhibition control wells contained DMSO while 100% inhibition control wells contained 50 µM E-64 (Sigma). Percentage inhibition of test compound was calculated relative to the controls and IC50 curve fitting was performed with Prism 4 software as above.

[1] = system: W2-strain P. falciparum parasites; test: P. falciparum growth inhibition assay; format: cell-based, Plasmodium falciparum; conditions: cultured W2 strain, 48 hours; for GI50: read-out: GI50 P. falc. W2
Experimental: The growth inhibition assay for P. falciparum was conducted as described previously. W2-strain P. falciparum parasites (1% parasitemia, 2% hematocrit) were cultured at 37°C in human red blood cells under the atmosphere of 3% O2, 5% CO2 balance N2 in 0.2 mL of per well in medium RPMI-1640 supplemented with 10% human serum in duplicate 96-well flat bottom culture plates in the presence of inhibitors. Tested compounds were serially diluted 1∶3 in the range 10,000 – 4.6 nM, with maximum DMSO concentration of 0.1%. Following 48 hours of incubation, the medium was removed and the cells were fixed in 2% formaldehyde in PBS. Parasite growth was evaluated by flow cytometry on a FACsort (Becton Dickinson) equipped with AMS-1 loader (Cytek Development) after staining with 1 nM DNA dye YOYO-1(Molecular Probes) in 100 mM NH4Cl, 0.8% NaCl. Parasitemias were determined from dot plots (forward scatter vs. fluorescence) using […] software (Becton Dickinson). IC50 values for growth inhibition were determined from plots of percentage control parasitemia over inhibitor concentration using GraphPad Prism software.

falcipain-2 = falcipain-2 (Plasmodium falciparum, UniProt Q8I6U4); test: Falcipain-2 protease inhibition assay (Z-Leu-Arg-AMC); format: biochemical; conditions: read-out: IC50 falcipain-2
Experimental: as §1, §2

Row | Structure (SMILES) | IC50 (falcipain-3) | GI50 [1] | IC50 (falcipain-2) | GI50 P. falc. W2 [1]
1 | CC(C)C[C@H](NC(=O)c1ccc(-c2ccc(O)cc2)cc1)C(=O)NCC#N | 28 nM | 4000 nM | 78 nM | –
2 | Cc1ccccc1-c1cccc(C(=O)N[C@@H](CC(C)C)C(=O)NCC#N)c1 | 67 nM | > 20000 nM | 26 nM | –
3 | CC(C)C[C@H](NC(=O)c1ccc(-c2ccccc2Cl)s1)C(=O)NCC#N | 23 nM | 2000 nM | 8.7 nM | –
4 | CC(C)C[C@H](NC(=O)c1cc2c(-c3ccccc3)nn(C)c2s1)C(=O)NCC#N | 5.2 nM | > 20000 nM | 24 nM | –
5 | CSc1cccc(-c2cccc(C(=O)N[C@@H](CC(C)C)C(=O)NCC#N)c2)c1 | 28 nM | 3000 nM | 8.8 nM | –
6 | CC(C)C[C@H](NC(=O)c1ccc(-c2ccc(S(C)(=O)=O)cc2)cc1)C(=O)NCC#N | 18 nM | 2200 nM | 28 nM | –
7 | CC(C)C[C@H](NC(=O)c1cccc(-c2ccccc2S(C)(=O)=O)c1)C(=O)NCC#N | 16 nM | 840 nM | 17 nM | sub-micromolar
8 | COc1cccc(-c2ccc(C(=O)N[C@@H](CC(C)C)C(=O)NCC#N)cc2)c1 | 67 nM | 3500 nM | 75 nM | –
9 | COc1ccc(-c2csc(C(=O)N[C@@H](CC(C)C)C(=O)NCC#N)c2)cc1 | 25 nM | 2700 nM | 18 nM | –
10 | CC(C)C[C@H](NC(=O)c1cc2c(C(F)(F)F)nn(C)c2s1)C(=O)NCC#N | 15 nM | 3500 nM | 50 nM | –
11 | CC(C)C[C@H](NC(=O)c1ccc(-c2ccccc2F)cc1)C(=O)NCC#N | 85 nM | > 20000 nM | 68 nM | –
